## Single amino acid changes in Zika NS2B-NS3 and viral growth

Reference: Ni et al. 2025, doi:10.1038/s41467-025-63602-z.

Protein: NS2B and the protease part of NS3 of Zika virus strain MR766. Positions count along the chain below; NS2B spans 2-131 and NS3 starts at 132.
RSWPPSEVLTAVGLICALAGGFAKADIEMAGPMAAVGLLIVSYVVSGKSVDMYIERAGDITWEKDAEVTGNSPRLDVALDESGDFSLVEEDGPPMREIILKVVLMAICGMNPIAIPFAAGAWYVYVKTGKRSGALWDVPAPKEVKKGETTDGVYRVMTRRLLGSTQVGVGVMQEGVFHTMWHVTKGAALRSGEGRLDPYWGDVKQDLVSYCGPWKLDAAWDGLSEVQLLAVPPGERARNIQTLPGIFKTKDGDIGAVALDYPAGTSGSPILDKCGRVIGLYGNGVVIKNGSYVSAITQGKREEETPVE

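Mutant virus pools were grown in human Huh-7.5 cells. Deep sequencing gave the change in frequency of each mutant relative to wild type, averaged over three replicate libraries (two for positions 207-308).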

Scale: log2 effect, wild type = 0; the lower, the more harmful to the virus.
Substitutions are written as wild-type residue, site number, new residue.

change	log2 effect
P5W	-6.09
E7T	-7.08
V8H	-4.23
L14Q	-5.83
L18C	-3.18
A19D	-6.78
G20T	-2.49
G21Q	-3.99
K24Y	-5.40
G37V	-4.78
V44F	-4.89
K48L	-5.25
M52W	-3.30
G58P	-7.21
D59S	-3.14
D59V	-4.90
I60K	-6.63
T61Q	-0.42
K64P	0.72
E67N	-5.81
A78I	0.15
A78V	-0.38
E81H	-6.11
V88E	-5.44
E90N	-0.84
G92H	-4.64
P93M	-2.79
M95T	-1.81
E97H	-3.59
I98G	-6.81
I99F	-0.64
I99L	-0.05
K101Y	-6.43
I107P	-6.07
G109H	-5.36
P112A	-6.18
A114C	-0.61
Y123K	-5.45
V124A	-0.63
G133*	-5.96
A134P	-7.13
W136D	-6.18
W136P	-7.46
V156K	-5.65
V156Y	-5.42
G163V	-6.77
V176Y	-4.35
T184E	-5.66
R190M	-6.42
P198C	-4.80
G201T	-6.85
V203*	-8.46
V203M	-5.68
S209I	-5.47
G212M	-6.84
K215Q	-2.91
K215R	0.07
A218W	-5.95
L223S	-1.00
E225T	-5.94
V231W	-4.46
E235M	-3.68
A237N	-1.71
I240F	-6.90
Q241Y	-5.99
T242M	-5.88
P244H	-5.77
T249R	-6.86
T249Y	-5.38
K250D	-5.05
Y261P	-4.45
P269Y	-5.00
L271M	-1.52
Y281P	-5.86
N283D	-5.15
G284C	-4.82
V293T	-5.68
T297N	-3.78
R301K	-4.33
V307L	-1.24

The region was split into three libraries (1-103, 104-206, 207-308).
Stop codons (*) centre on -7 and mark the level of dead virus.
Values above 0 are not proof of better growth: six high scorers were tested one by one, five grew less well than wild type and one about as well.
Position 1 still belongs to NS2A. In the paper, -1 or higher counts as tolerated.